Anti-infective test results gathered from many reports (values: NIAID ChemDB through PubChem).

All rows: tests in culture; agent: Rhinovirus; measure: inhibition

a–b is a range or a potency band.

structure,strain,cells,read by,tested at,result
Cc1cc(Cl)ccc1Cn1cnc2c(N(C)C)nc(C(F)(F)F)nc21,Serotype 13,M-HELA,plaque count,8 µM,23%
O=C(O)c1cc(S(=O)(=O)[O-])ccc1O,-,Human amnion AV3 cells,cytopathic effect,5 µg/mL,0%
Cc1cccc(C2=CCN(c3ccc(Cl)nn3)CC2)c1,17 serotypes,-,-,0.021 µg/mL,18%
NCCS(=O)(=O)O,-,Human embryonic lung cells,cytopathic effect,50 µg/mL,10%
CSc1ccc(Cn2cnc3c(N(C)C)nc(C(F)(F)F)nc32)cc1,Serotype 3,M-HELA,plaque count,8 µM,39%
Nc1ccc(S(=O)(=O)[O-])c2c(S(=O)(=O)[O-])ccc(O)c12,-,Human amnion AV3 cells,cytopathic effect,5 µg/mL,0%
CN(C)c1nc(C(F)(F)F)nc2c1ncn2Cc1ccc(S(C)(=O)=O)cc1,Serotype 15,M-HELA,plaque count,8 µM,47%
CCCCCCCCCCCCCCOc1ccc(C(C)=O)o1,100 serotypes,-,-,0.5 µg/mL,53%
CN(C)c1ccc(Cn2cnc3c(N(C)C)nc(C(F)(F)F)nc32)cc1,Serotype 5,M-HELA,plaque count,8 µM,39%
Cc1cc(CCCCCCCOc2ccc(C3=NCCO3)cc2)on1,17 serotypes,-,-,0.658 µg/mL,18%
O=S(=O)([O-])c1ccc2c(O)cc(S(=O)(=O)[O-])cc2c1,-,Human embryonic lung cells,cytopathic effect,10 µg/mL,30%
CC(C)Oc1ccc(Cn2cnc3c(N(C)C)nc(C(F)(F)F)nc32)cc1,Serotype 14,M-HELA,plaque count,8 µM,22%
O=C(Nc1c(S(=O)(=O)[O-])cc2cc(S(=O)(=O)[O-])cc(O)c2c1O)c1ccccc1,-,Human embryonic lung cells,cytopathic effect,50 µg/mL,66%
CS(=O)(=O)c1ccc2c(c1)CCC(c1ccc(Cl)c(Cl)c1)O2,17 serotypes,-,-,29.5 µg/mL,71%
CN(C)c1nc(C(F)(F)F)nc2c1ncn2Cc1ccc(Br)cc1,Serotype 5,M-HELA,plaque count,8 µM,37%
N#Cc1cc([N+](=O)[O-])ccc1Oc1ccc(Cl)c(Cl)c1,HANK,VERO,plaque count,2 µg/mL,100%
O=C(O)Cc1csc(/N=C2\SC[C@@H]3Cc4ccccc4CN23)n1,Serotype 9,MRC-5,cytopathic effect,15 µg/mL,80–100%
Nc1c(S(=O)(=O)[O-])cc2cc(S(=O)(=O)[O-])ccc2c1O,-,Human embryonic lung cells,cytopathic effect,5 µg/mL,55%
CN(C)c1nc(C(F)(F)F)nc2c1ncn2Cc1ccc(Cl)c(N)c1,Serotype 29,M-HELA,plaque count,8 µM,26%
O=S(=O)(O)c1cccc2c(O)cccc12,-,Human amnion AV3 cells,cytopathic effect,10 µg/mL,0%
FC(F)(F)c1cccc(C2CCN(c3ccc(Br)nn3)C2)c1,17 serotypes,-,-,0.475 µg/mL,53%

The first 2 rows once more:

Cc1cc(Cl)ccc1Cn1cnc2c(N(C)C)nc(C(F)(F)F)nc21 ; strain: Serotype 13 ; cells: M-HELA ; read by: plaque count ; tested at: 8 µM ; result: 23%
O=C(O)c1cc(S(=O)(=O)[O-])ccc1O ; cells: Human amnion AV3 cells ; read by: cytopathic effect ; tested at: 5 µg/mL ; result: 0%

Inhibition is in % at the dose shown (toxicity tests: loss of growth or viability). Lines come from different laboratories, so protocols vary. An empty or dashed field is not shown.